Results of unrelated studies side by side (data: NIAID ChemDB).

Common to all: growth or infection tests; species: Human cytomegalovirus; cell line: MRC-5; endpoint: EC50

ECn: concentration that inhibits the pathogen or its effect by n%.

smiles	strain	read by	value
Nc1nc2c(ncn2COC(CO)CO)c(=O)[nH]1	RCL-1 (UL97 G594A UL54 S545L)	ELISA	14.5 µM
OC[C@H]1O[C@@H](n2c(Br)nc3cc(Cl)c(Cl)cc32)[C@H](O)[C@@H]1O	1038RA	plaque count	6 µM
Nc1nc2c(ncn2[C@@H]2C[C@H](CO)[C@H]2CO)c(=O)[nH]1	PAAR	plaque count	7.44 µM
c1csc(-c2cc3ccccn3c2)c1	AD169	plaque count	12 µM
Nc1nc2c(ncn2COC(CO)CO)c(=O)[nH]1	Towne (ganciclovir- foscarnet-susceptible)	plaque count	4.94 µM
Clc1ccc(-c2cc3ccccn3c2)cc1Cl	AD169	plaque count	>100 µM
CCOP(=O)(O)CCC(CO)OCn1cnc2c(=O)[nH]c(N)nc21	CH ganciclovir-susceptible	plaque count	47 µg/mL
O[C@@H]1[C@H](O)[C@H](O)CO[C@H]1n1c(Br)nc2cc(Cl)c(Cl)cc21	GDGP53 (A987G)	plaque count	1.3 µM
CCCCCCCCCCCCCCCCCCOCCOP1(=O)CO[C@@H](Cn2ccc(N)nc2=O)CO1	Coffman	plaque count	0.002 µM
N#Cc1ccc(-c2cc3ccccn3c2)cc1	AD169	plaque count	>100 µM
Nc1ccn(C[C@H]2COP(=O)(O)CO2)c(=O)n1	Coffman	plaque count	1.2 µM
COC(=O)c1ccc2cc(-c3ccccc3)cn2c1	AD169	plaque count	>100 µM
Nc1nc2c(ncn2COC(CO)CO)c(=O)[nH]1	AD169	plaque count	2.2 µg/mL
Clc1ccc(-c2cc3ccccn3c2)c(Cl)c1	AD169	plaque count	>100 µM
Nc1ccn(C[C@@H](CO)OCP(=O)(O)O)c(=O)n1.O=C(O)P(=O)(O)O	PC92 (ganciclovir- foscarnet-susceptible)	plaque count	0.96 µM
OC[C@H]1O[C@@H](n2c(Br)nc3cc(Cl)c(Cl)cc32)[C@H](O)[C@@H]1O	8805REC1 (MET460VAL)	hybridisation	2 µM
CCCCCCCCCCCCCCCCCCOCCOP(=O)(O)CO[C@H](CO)Cn1ccc(N)nc1=O	Toledo	plaque count	0.025 µM
Nc1nc2c(ncn2C[C@@H]2CC[C@@H](P(=O)(O)O)O2)c(=O)[nH]1	AD169	plaque count	0.11 µg/mL
O=[N+]([O-])c1cccc(-c2cc3ccccn3c2)c1	AD169	plaque count	>10 µM
Nc1nc2c(ncn2COC(CO)CO)c(=O)[nH]1	C8302	plaque count	2.7 µM
O=C(O)P(=O)(O)O	Towne (ganciclovir- foscarnet-susceptible)	plaque count	136 µM

Again, the opening 2 rows:

smiles	strain	read by	value
Nc1nc2c(ncn2COC(CO)CO)c(=O)[nH]1	RCL-1 (UL97 G594A UL54 S545L)	ELISA	14.5 µM
OC[C@H]1O[C@@H](n2c(Br)nc3cc(Cl)c(Cl)cc32)[C@H](O)[C@@H]1O	1038RA	plaque count	6 µM

Lines come from different laboratories, so protocols vary.